According to PubChem BioAssay AID720706 (Broad Institute, 2013):
The list shows a part of the results, in another mix than the full data. Activity calls are given as the source filed them.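 The calls were made as follows: active = significant combined selectivity score with lowered wild-type GFP, culture density cut under 30%, mutant RFP and density less affected; inactive = any of these conditions unmet.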

Assay: GFP drop in mixed WT/humanized-ribosome E. coli culture – GFP/RFP fluorescence, OD600, single point, bacterial rRNA inhibitor project, primary screen (AID 720706)
Conditions: E. coli WT GFP vs humanized-ribosome RFP mutants, 24 h, hits give low values, DMSO median 0, no signal -100
With `COc1ccc(N)c([N+](=O)[O-])c1[N+](=O)[O-]` the GFP signal change (wild-type ribosome) was active: -32.4%.
